Results taken from US20150010915.
Construct, isoform or probe ends are uncertain for at least one entry. Where a protein sequence is shown, tags need not be part of it.

System: T1, NanR (wild type) (Vibrio vulnificus)
T1 sequence (limits assumed): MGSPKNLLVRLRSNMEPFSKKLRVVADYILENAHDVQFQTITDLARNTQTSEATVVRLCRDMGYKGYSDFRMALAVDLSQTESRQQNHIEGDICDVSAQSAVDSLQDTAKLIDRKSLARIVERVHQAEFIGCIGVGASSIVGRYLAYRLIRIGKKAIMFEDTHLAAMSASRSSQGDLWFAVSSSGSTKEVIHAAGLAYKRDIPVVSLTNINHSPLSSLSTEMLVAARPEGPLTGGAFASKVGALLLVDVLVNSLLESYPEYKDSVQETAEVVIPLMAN
Assay: ITC
Settings: 50 mM Tris-HCl pH 7.0, 300 mM NaCl, 25 C, purified recombinant protein, protein details: His (pHis-Parallel1)

GTTTGAAAAAAATCTTCGTTATGGATTATTATGGCGATGGAGATTATTTTCAAAC (double strand) [NanR-binding duplex (ITC)]
Kd (NanR/ManNAc-6P complex, 130-fold reduced): 186 µM
Kd (apo-NanR dimer, 1:1 stoichiometry): 1.4 µM
